According to US20190113512A1 (MIT, published 2019):
Numbering of substitutions follows the chain as printed.

Experiments:
H1BA [1] = molecular target: T1, H1BA (Mycobacterium tuberculosis); test: yeast-surface display flow cytometry, 100 nM antigen in 0.1% BSA/PBS
T1 chain: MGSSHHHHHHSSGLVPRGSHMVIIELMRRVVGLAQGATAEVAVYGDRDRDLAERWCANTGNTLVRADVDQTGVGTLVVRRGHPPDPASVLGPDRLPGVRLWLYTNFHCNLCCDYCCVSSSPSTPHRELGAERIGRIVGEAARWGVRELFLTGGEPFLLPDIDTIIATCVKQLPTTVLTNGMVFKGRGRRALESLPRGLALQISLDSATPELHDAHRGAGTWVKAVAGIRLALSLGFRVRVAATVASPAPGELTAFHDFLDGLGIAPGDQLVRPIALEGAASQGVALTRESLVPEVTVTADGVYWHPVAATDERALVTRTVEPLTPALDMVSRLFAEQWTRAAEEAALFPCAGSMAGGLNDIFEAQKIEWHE

H6BA [2] = molecular target: T2, H6BA (Mycobacterium tuberculosis); test: as above
T2 chain: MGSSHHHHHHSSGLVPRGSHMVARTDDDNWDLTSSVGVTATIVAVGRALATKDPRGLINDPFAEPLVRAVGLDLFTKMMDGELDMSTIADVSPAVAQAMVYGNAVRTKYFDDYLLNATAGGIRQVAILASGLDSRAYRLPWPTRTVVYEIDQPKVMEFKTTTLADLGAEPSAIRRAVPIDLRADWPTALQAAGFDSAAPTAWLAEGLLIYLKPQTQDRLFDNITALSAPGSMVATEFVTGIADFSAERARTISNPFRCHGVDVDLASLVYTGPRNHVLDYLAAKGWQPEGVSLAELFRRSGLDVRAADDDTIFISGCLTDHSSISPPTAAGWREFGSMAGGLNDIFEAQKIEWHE

H1BA [3] = molecular target: T1, H1BA; test: yeast-surface display flow cytometry, 100 nM analyte, geometric MFI
H7BA [4] = molecular target: T3, H7BA (Mycobacterium tuberculosis); test: as above
T3 chain: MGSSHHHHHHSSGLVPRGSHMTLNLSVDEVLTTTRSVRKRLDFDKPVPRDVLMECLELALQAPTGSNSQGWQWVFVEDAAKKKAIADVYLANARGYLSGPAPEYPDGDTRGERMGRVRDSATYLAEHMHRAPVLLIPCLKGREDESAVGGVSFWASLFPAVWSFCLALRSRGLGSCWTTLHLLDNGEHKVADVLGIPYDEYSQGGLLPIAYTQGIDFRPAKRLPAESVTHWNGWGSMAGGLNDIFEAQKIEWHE

H6BA [5] = molecular target: T2, H6BA; test: as above
H2BA [6] = molecular target: T4, H2BA (Mycobacterium tuberculosis); test: as above
T4 chain: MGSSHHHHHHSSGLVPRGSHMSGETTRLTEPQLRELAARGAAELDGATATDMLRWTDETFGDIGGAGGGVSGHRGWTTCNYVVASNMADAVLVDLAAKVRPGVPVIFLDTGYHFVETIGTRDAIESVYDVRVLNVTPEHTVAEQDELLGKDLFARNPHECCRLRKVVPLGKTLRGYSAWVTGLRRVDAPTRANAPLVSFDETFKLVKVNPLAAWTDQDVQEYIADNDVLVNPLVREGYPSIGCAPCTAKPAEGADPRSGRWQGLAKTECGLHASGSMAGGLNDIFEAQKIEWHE

[7] = molecular target: T5, biotinylated recombinant Rv1656 (Mycobacterium tuberculosis)
T5 chain: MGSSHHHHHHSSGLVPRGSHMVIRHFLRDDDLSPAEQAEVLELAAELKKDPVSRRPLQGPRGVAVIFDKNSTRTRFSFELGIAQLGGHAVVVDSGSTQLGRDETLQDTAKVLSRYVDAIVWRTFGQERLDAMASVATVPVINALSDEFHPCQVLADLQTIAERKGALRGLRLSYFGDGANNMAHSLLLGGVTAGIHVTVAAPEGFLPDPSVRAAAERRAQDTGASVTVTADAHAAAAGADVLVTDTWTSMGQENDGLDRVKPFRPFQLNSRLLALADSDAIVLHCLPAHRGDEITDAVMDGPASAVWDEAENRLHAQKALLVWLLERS

H4 = H4 (Mycobacterium tuberculosis, UniProt A1KJ73 2-307); test: yeast-surface display flow cytometry, 100 nM antigen in 0.1% BSA/PBS
H7BA [8] = molecular target: T3, H7BA; test: yeast-surface display flow cytometry, 0.1% BSA/PBS, heat, urine
H1-bx = molecular target: T6, H1-bx (Mycobacterium tuberculosis); test: yeast-surface display flow cytometry, 100 nM antigen in 0.1% BSA/PBS
T6 chain: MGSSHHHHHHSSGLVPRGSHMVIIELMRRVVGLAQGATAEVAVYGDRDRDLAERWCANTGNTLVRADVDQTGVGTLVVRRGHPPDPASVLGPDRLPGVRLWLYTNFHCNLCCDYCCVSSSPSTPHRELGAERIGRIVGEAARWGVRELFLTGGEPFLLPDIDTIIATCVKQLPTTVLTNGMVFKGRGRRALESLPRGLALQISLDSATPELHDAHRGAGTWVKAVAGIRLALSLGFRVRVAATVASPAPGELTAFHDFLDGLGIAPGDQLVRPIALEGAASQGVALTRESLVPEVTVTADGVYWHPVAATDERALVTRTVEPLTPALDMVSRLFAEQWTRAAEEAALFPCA

H2BA [9] = molecular target: T4, H2BA; test: as above

B1: rcSso7d.H1BA.1 (designed binder)
chain: MATVKFTYQGEEKQVDISKIKHVRRWGQYIIFAYDEGGGAYGGGWVSEKDAPKELLQMLEKQ
notes: also called 1.4.1
Baseline binding (% positive) (H1BA [1]): 77.6%

B2: rcSso7d.H6BA.1 (designed binder)
chain: B1 chain with H22W, R24Y, W26Y, A33G, Y41K, G43N, W45Y
notes: also called 6.PF2.2
Baseline binding (% positive) (H6BA [2]): 31.4%

B3: rcSso7d.H6BA.2 (designed binder)
chain: B1 chain with H22W, R24Y, Y41A, G43K, W45S
notes: also called 6.PF2.4
Baseline binding (% positive) (H6BA [2]): 19.5%

B4: rcSso7d.H6BA.3 (designed binder)
chain: B1 chain with H22R, R24I, W26A, Y29S, A33S, Y41I, G43H
notes: also called 6.PF2.5
Baseline binding (% positive) (H6BA [2]): 58.5%

B5: rcSso7d.Rv1656 (yeast-surface displayed) (designed binder)
chain: B1 chain with H22W, W26Y, I31G, A33S, Y41W, G43K, W45Y
notes: also called rcSso7d.H4.2; H4.2
binding result (H1BA [3]): no binding (tested: 100 nM) | binding result (H7BA [4]): no binding (tested: 100 nM) | binding result (H6BA [5]): no binding (tested: 100 nM) | binding result (H2BA [6]): no binding (tested: 100 nM) | EC50 (read off the curve) [7]: ~10 nM | Baseline binding (% positive) (H4): 60.4%

B6: rcSso7d.H4.3 (designed binder)
chain: MATVKFTYQGEEKQVDISKIKHVWRRGQNIYFRYDEGGGAWGAGAVSEKDAPKELLQMLEKQ
notes: also called P4-10; C2
Baseline binding (% positive) (H4): 25.8%

B7: rcSso7d.H4.5 (designed binder)
chain: B6 chain with H22G, W24Y, R26H, N29S, Y31W, A43W, A45I
notes: also called P4-17; C5
Baseline binding (% positive) (H4): 30.8%

B8: rcSso7d.H4.7 (designed binder)
chain: B6 chain with H22Y, R26H, N29H, Y31A, W41H, A43W, A45S
notes: also called P5-5; C7
Baseline binding (% positive) (H4): 13.4%

B9: rcSso7d.H4.8 (designed binder)
chain: B1 chain with H22D, R24W, W26H, Y29H, A33S, G43A, W45H
notes: also called P5-8; C8
Baseline binding (% positive) (H4): 3.5%

B10: rcSso7d.H4.4 (designed binder)
chain: MATVKFTYQGEEKQVDISKIKSVKRNGQSIDFDYDEGGGAAGEGKVSEKDAPKELLQMLEKQ
notes: also called P4-12; C3
Baseline binding (% positive) (H4): 7.8%

B11: rcSso7d.H4.6 (designed binder)
chain: B10 chain with K24H, N26Y, S29K, D31Y, A41I, E43K, K45H
notes: also called P5-4; C6
Baseline binding (% positive) (H4): 15.3%

B12: rcSso7d.H4.9 (designed binder)
chain: MATVKFTYQGEEKQVDISKIKYVKRIGQYISFNYDEGGGAHGHGIVSEKDAPKELLQMLEKQ
notes: also called P5-10; C9
Baseline binding (% positive) (H4): 19.6%

B13: rcSso7d.H7.1 (designed binder)
chain: MATVKFTYQGEEKQVDISKIKYVYRWGQRIWFRYDEGGGAIGRGRVSEKDAPKELLQMLEKQ
notes: also called 7.B10
binding result (H7BA [8]): binds

B14: rcSso7d.H1BA.3 (designed binder)
chain: B1 chain with R24I, W26N
notes: also called 1.E2.2
Geometric MFI (baseline binding) (H1-bx): 1400

B15: rcSso7d.H1BA.4 (designed binder)
chain: B1 chain with H22N, R24Y, A33S, G43W
notes: also called 1.E2.3
Baseline binding (% positive) (H1-bx): 31.4%

B16: rcSso7d.H2BA.1 (designed binder)
chain: B1 chain with H22R, R24I, W26Y, Y29A, I31A, Y41R, G43Y
notes: also called H2BA.PF5.1
Baseline binding (% positive) (H2BA [9]): 55.1% | Geometric MFI (baseline binding) (H2BA [9]): 474

B17: rcSso7d.H1BA.5 (designed binder)
chain: B1 chain with H22Y, W26Y, I31G, A33I, Y41W, G43K, W45Y
notes: also called 1.E2.4
Baseline binding (% positive) (H1BA [1]): 32.5%

B18: rcSso7d.H1BA.6 (designed binder)
chain: B13 chain with Y22D, Y24W, R29W, W31D, R33I, I41D, R43W
notes: also called H1BA.PF5.1
Baseline binding (% positive) (H1BA [1]): 70.4% | Geometric MFI (baseline binding) (H1BA [1]): 1920
